The values that follow come from patent US20190071489A1.

Where only a bound is given, the exact number is not on record here.

The target of the experiment is EBOV GP (Mayinga variant) (Ebola virus (EBOV), Mayinga variant) (UniProt Q05320). The experiment can be described thus: cell-based or functional assay.

Regarding KZ52 (antibody), the IC50 (µg/mL), neutralization of EBOV GP-pseudotyped lentivirus on HEK293T amounted to 0.06 µg/mL; the IC90 (µg/mL), neutralization of EBOV GP-pseudotyped lentivirus on HEK293T worked out at 17.2 µg/mL; the IC99 (µg/mL), neutralization of EBOV GP-pseudotyped lentivirus on HEK293T was more than 1000 µg/mL.

In turn, EVB114 (antibody) registered an IC50 (µg/mL), neutralization of EBOV GP-pseudotyped lentivirus on HEK293T of 0.09 µg/mL; an IC90 (µg/mL), neutralization of EBOV GP-pseudotyped lentivirus on HEK293T of 0.71 µg/mL; an IC99 (µg/mL), neutralization of EBOV GP-pseudotyped lentivirus on HEK293T of 7.19 µg/mL.
